The text below walks through data of paper doi:10.1101/2025.05.22.655678.

Construct, isoform or probe ends are uncertain for at least one entry. Tags and fusion partners may be left off the protein sequences shown.

This data set concerns T1, VchI (Vibrio cholerae).
T1 sequence (limits assumed): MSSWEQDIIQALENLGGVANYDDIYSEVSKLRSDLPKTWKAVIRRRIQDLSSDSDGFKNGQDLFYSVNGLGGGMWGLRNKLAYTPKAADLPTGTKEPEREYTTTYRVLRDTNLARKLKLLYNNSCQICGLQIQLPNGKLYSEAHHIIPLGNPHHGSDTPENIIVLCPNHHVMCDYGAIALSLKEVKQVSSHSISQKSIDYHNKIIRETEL
Kind of data set: EMSA. Conditions: 0.5 uM VchI; N6-methyladenine in any context (M.EcoGII). For orientation: In EMSA bound probe runs differently from free probe, usually more slowly.

Take “GGGCTACGTCTTGCTGGCGTTCGCGACACGAGGCTGGATGGCCTTCCCCATTATGATTCT (double strand)”: the binding result was “binds”.
